The source of these data is ChEMBL document CHEMBL1144867, “Antiviral amphipathic oligo- and polyribonucleotides: analogue development and biological studies” (J Med Chem, 2003).

The test system of this assay is MRC5. The assay is described as follows: Inhibitory activity of compound against human cytomegalovirus (HCMV) in MRC-5 cells.
`CCCn1cnc2c(ncn2[C@@H]2O[C@H](COC)[C@@H](OP(C)(=O)O)[C@H]2OC)c1=S` yielded an EC50 of 1300 nM. `C#CCn1cnc2c(ncn2[C@@H]2O[C@H](COC)[C@@H](OP(C)(=O)O)[C@H]2O)c1=O`: it took 19 nM to reach a half-maximal effect (EC50). As to `C#CCn1cnc2c(ncn2[C@@H]2O[C@H](COC)[C@@H](OP(C)(=O)O)[C@H]2OC)c1=O`, the EC50 turned out to be 560 nM.
